Results of unrelated studies side by side (data: NIAID ChemDB).

All rows: tests in culture; agent: Aspergillus niger; read by: agar diffusion; read-out: zone

Lines come from different laboratories, so protocols vary. Blank or dashed fields: not listed here. Zones are inhibition diameters on agar.

structure,strain,dose,result
O=C(NN=CC1C(c2ccccc2)=Nc2ccccc21)N1c2ccccc2C=Cc2ccccc21,MTCC 281,750 µg/mL,4 mm
CSC1=NC(c2ccccc2)C(C#N)=C(N)N1,MTCC 282,50 µg/mL,16 mm
Cc1ccccc1NCc1cc2ccccc2nc1Cl,MTCC 281,200 µg/mL,8.66 mm
CC1(C)C=C2C3CCC4[C@@]5(C)CC[C@H](OC(=O)/C=C\c6ccc(O)cc6)C(C)(C)C5CC[C@@]4(C)[C@]3(C)CC[C@@]2(C)CC1,UPCC 3701,30 mg/disc,0 mm
Cc1c(N2C(=O)CSC23C(=O)N(CCCCCCBr)c2ccccc23)c(=O)n(-c2ccccc2)n1C,MTCC 282,100 µg/mL,15 mm
CS(=O)(=O)c1nc(N)c(C#N)c(-c2ccccc2Cl)n1,MTCC 282,25 µg/mL,18 mm
C=CC(C)(O)CCC=C(C)C.CC(C)=CCC/C(C)=C/CC/C(C)=C/CC/C=C(/C)CC/C(C)=C\CO,ATCC 16404,500 µg/mL,15 mm
Cc1ccc2c(c1)C(C1SCC(=O)N1NC(=O)N1c3ccccc3C=Cc3ccccc31)C(c1ccccc1)=N2,MTCC 281,500 µg/mL,2 mm
CC[C@H](CC[C@@H](C)[C@H]1CCC2C3CC=C4CC(O)CC[C@]4(C)C3CC[C@@]21C)C(C)C,ATCC 16404,500 µg/mL,0 mm
Cc1ccc(NCc2cc3ccccc3nc2Cl)cc1,MTCC 281,200 µg/mL,10.9 mm
Cc1ccc(N2NOC(=O)C2S(=O)(=O)Nc2nc3ccc([N+](=O)[O-])cc3s2)cc1,MTCC 282,250 µg/mL,25 mm
CN(Cc1cc2ccccc2nc1Cl)c1ccc(Cl)c(Cl)c1,MTCC 281,200 µg/mL,21.13 mm
CC[C@H](/C=C/[C@@H](C)[C@H]1CCC2C3CC=C4CC(O[C@@H]5O[C@H](CO)[C@@H](O)[C@H](O)[C@H]5O)CC[C@]4(C)C3CC[C@@]21C)C(C)C,ATCC 16404,500 µg/mL,0 mm
COC1=CC(=O)C[C@@H](C)[C@]12Oc1c(Cl)c(OC)cc(OC)c1C2=O,MTCC 282,250 µg/mL,28 mm
Cc1nn(-c2ccccc2)c2c1C1(C(=O)N(CCCCCCN3C(=O)C4(SCC(=O)N4c4c(C)n(C)n(-c5ccccc5)c4=O)c4cc(F)ccc43)c3ccc(F)cc31)c1c(C)nn(-c3ccccc3)c1O2,MTCC 282,100 µg/mL,20 mm
O=C(NN=CC1C(c2ccccc2)=Nc2ccc(Cl)cc21)N1c2ccccc2C=Cc2ccccc21,MTCC 281,750 µg/mL,12 mm
CSC1=NC(c2cccc3cc4ccccc4cc23)C(C#N)=C(N)N1,MTCC 282,50 µg/mL,15 mm
O=C1NC2(CO1)O/C(=C/c1ccc([N+](=O)[O-])cc1)C(=O)N2CCCNc1ccnc2cc(Cl)ccc12,-,200 µg/mL,39 mm
C=CC(C)(O)CCCC(C)CCCC(C)CCCC(C)C,ATCC 16404,500 µg/mL,10.3 mm
Cc1ccc(/C=C/C(=NCCCn2ccnc2)c2ccccc2O)cc1.[Cl][Ni],-,100 µg/mL,14 mm
CC[C@H](/C=C/[C@@H](C)[C@H]1CCC2C3CC=C4CC(O)CC[C@]4(C)C3CC[C@@]21C)C(C)C,ATCC 16404,500 µg/mL,0 mm
Cc1ccc(-c2csc(NS(=O)(=O)C3C(=O)ONN3c3ccc(C)cc3)n2)cc1,MTCC 282,250 µg/mL,23 mm
Cc1ccc(/C=C/C(=NCCCn2ccnc2)c2ccccc2O)cc1,-,100 µg/mL,14 mm
OC(Cn1cncn1)(Cn1cncn1)c1ccc(F)cc1F,-,200 µg/mL,60 mm
Cc1ccc2c(c1)C1(SCC(=O)N1c1c(C)n(C)n(-c3ccccc3)c1=O)C(=O)N2CCCCCCN1C(=O)C2(c3cc(F)ccc31)c1c(C)nn(-c3ccccc3)c1Oc1c2c(C)nn1-c1ccccc1,MTCC 282,100 µg/mL,18 mm
COc1ccc(/C=C2/OC3(COC(=O)N3)N(CCCNc3ccnc4cc(Cl)ccc34)C2=O)cc1,-,400 µg/mL,20 mm
Clc1nc2ccccc2cc1CNC1CCCCC1,MTCC 281,200 µg/mL,6.27 mm
CS(=O)(=O)c1nc(N)c(C#N)c(-c2ccc(Cl)cc2)n1,MTCC 282,50 µg/mL,19 mm
Cc1ccc(N2NOC(=O)C2S(=O)(=O)Nc2nc3c([N+](=O)[O-])cccc3s2)cc1,MTCC 282,250 µg/mL,19 mm
Cc1nn(-c2ccccc2)c2c1C1(C(=O)N(CCCCCCN3C(=O)C4(SCC(=O)N4c4c(C)n(C)n(-c5ccccc5)c4=O)c4ccccc43)c3ccc(F)cc31)c1c(C)nn(-c3ccccc3)c1O2,MTCC 282,100 µg/mL,16 mm
O=[N+]([O-])c1ccc(/C=C/C(=NCCCn2ccnc2)c2ccccc2O)cc1.[Cl][Cu],-,100 µg/mL,18 mm
CCOc1ccc2nc(NS(=O)(=O)C3C(=O)ONN3c3ccc(C)cc3)sc2c1,MTCC 282,250 µg/mL,23 mm
Oc1ccccc1C(/C=C/c1ccccc1)=NCCCn1ccnc1.[Cl][Cu],-,100 µg/mL,16 mm
CC1(C)CC2C3=CCC4[C@@]5(C)CCC(=O)C(C)(C)C5CC[C@@]4(C)[C@]3(C)C[C@@H](O)[C@@]2(CO)[C@@H](O)C1,UPCC 3701,30 mg/disc,0 mm
COc1ccc(-c2nc3ccccc3c(=O)n2-c2ccc(NS(=O)(=O)C3C(=O)ONN3c3ccc(C)cc3)cc2)cc1,MTCC 282,250 µg/mL,20 mm